Source: ChEMBL document CHEMBL1147064 (Proc Natl Acad Sci U S A, 2007)

Sequences of proteins named here, by UniProt entry; tags and fusion partners are left off. Residues count along the entry.
UniProt P0DPI0, 2-448 limits assumed: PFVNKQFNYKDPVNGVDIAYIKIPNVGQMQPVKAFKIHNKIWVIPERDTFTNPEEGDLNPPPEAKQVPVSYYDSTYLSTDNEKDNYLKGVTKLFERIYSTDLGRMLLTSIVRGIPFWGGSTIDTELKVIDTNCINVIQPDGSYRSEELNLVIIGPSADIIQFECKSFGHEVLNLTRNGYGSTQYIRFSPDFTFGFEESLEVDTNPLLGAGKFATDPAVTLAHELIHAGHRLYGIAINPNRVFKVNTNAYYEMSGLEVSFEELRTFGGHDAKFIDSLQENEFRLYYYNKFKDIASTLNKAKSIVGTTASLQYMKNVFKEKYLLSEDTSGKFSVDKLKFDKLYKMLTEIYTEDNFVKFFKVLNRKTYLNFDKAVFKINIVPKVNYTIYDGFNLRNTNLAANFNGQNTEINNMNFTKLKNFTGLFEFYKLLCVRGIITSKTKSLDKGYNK

target: Botulinum neurotoxin type A (Clostridium botulinum, UniProt P0DPI0)

In order of rising IC50:
1. O=C(CN(CC(=O)NCc1cc(F)cc(C(F)(F)F)c1)C(=O)Cn1c(C(=O)N[C@H]2CCCC[C@@H]2NC(=O)c2cc3ccccc3n2CC(=O)N(CC(=O)NCCc2ccc(O)cc2)CC(=O)NCc2cc(F)cc(C(F)(F)F)c2)cc2ccccc21)NCCc1ccc(O)cc1  14.3 µM
2. COc1cccc(CCNC(=O)CN(CC(=O)NC2CCCc3ccccc32)C(=O)Cn2c(C(=O)N[C@H]3CCCC[C@@H]3NC(=O)c3cc4ccccc4n3CC(=O)N(CC(=O)NCCc3cccc(OC)c3)CC(=O)NC3CCCc4ccccc43)cc3ccccc32)c1 (stereo not given in full)  19.1 µM
3. COC(=O)c1cc2c3c(ccc2[nH]1)N(C(=O)c1nc2ccc(NC(=O)c4cc(NC(=O)OC(C)(C)C)cs4)cc2o1)CC3  46.2 µM
4. O=C(NCCc1ccccc1)[C@H]1CN(C(=O)c2ccc(-c3ccc(C(=O)N4C[C@@H](C(=O)NCCc5ccccc5)[C@H](C(=O)NC(c5ccccc5)c5ccccc5)C4)cc3)cc2)C[C@@H]1C(=O)NC(c1ccccc1)c1ccccc1  54.2 µM
5. O=C(NCc1ccccc1)[C@H]1CN(C(=O)c2ccc(-c3ccc(C(=O)N4C[C@@H](C(=O)NCc5ccccc5)[C@H](C(=O)NC5C[C@H]5c5ccccc5)C4)cc3)cc2)C[C@@H]1C(=O)NC1C[C@@H]1c1ccccc1 (stereo not given in full)  91.2 µM
